Values quoted from earlier work in publication PMC9180620.

Molecular target: TLR4 (Homo sapiens) (UniProt O00206)
Assay: SPR

For “SARS-CoV-2 spike trimer (from UniProt P0DTC2)”, the Kd is listed as 0.3 µM.
